Anti-infective test results gathered from many reports (values: NIAID ChemDB through PubChem).

Shared fields: whole-cell or culture tests; species: HIV-1; cells: CEM; read by: syncytia; read-out: fold resistance

Neighbouring rows are from separate reports. An empty or dashed field is not shown. Fold resistance has wild type as its base.

SMILES,strain,changes,value
CC(C)(C)OC(=O)c1cc(NC(=S)OC(C)(C)C)ccc1Cl,,RT-E138K,1
Cc1occc1C(=S)Nc1ccc(Cl)c(/C=N/OC(C)(C)C)c1,IIIB,RT-L100I,1.7
CCCSC(=Nc1ccc(Cl)c(C(=O)OC(C)C)c1)OC(C)C,,RT-L100I,15.3
CCc1c(Sc2ccccc2)n(COCc2ccccc2)c(=S)[nH]c1=O,IIIB,Nevirapine resistant (RT Y181C),113
CC1=C(C(=O)Nc2cccc(C(=O)OC(C)C)c2)SCCO1,TSAO-resistant (RT E138K),RT-E138K,>2.5
CC(C)=CCOc1cc(NC(=S)c2ccoc2C)ccc1Cl,IIIB,RT-V106A,1.7
CCc1c(Sc2ccccc2)n(COCc2ccccc2)c(=O)[nH]c1=O,IIIB TIBO R82913-resistant (RT K103N),RT-K103N,410
CC1=C(C(=O)Nc2ccc(F)c(C(=O)OC(C)C)c2)SCCO1,Nevirapine-resistant (RT V106A),RT-V106A,>28.6
CC(C)OC(=O)c1cc(NC(=S)OC(C)(C)C)ccc1Cl,,RT-E138K,9.16
CCCCOC(=O)c1cc(NC(=O)C2=C(C)OCCS2)ccc1Cl,Nevirapine-resistant (RT V106A),RT-V106A,150
CCc1c(Sc2cc(C)cc(C)c2)n(COCc2ccccc2)c(=O)[nH]c1=O,IIIB,RT-Y188H,630
C/C=C\COc1cc(NC(=S)OC(C)C)ccc1Cl,,RT-L100I,125
CCc1c(Sc2cc(C)cc(C)c2)n(COCCO)c(=O)[nH]c1=O,IIIB,RT-Y181I,467
CC(C)OC(=S)Nc1ccc(Cl)c(COC(C)(C)C)c1,,RT-Y181C,>2.22
CCOCn1c(Sc2ccccc2)c(C(C)C)c(=O)[nH]c1=O,IIIB,Nevirapine resistant (RT Y181C),80
CCCOC(=O)c1cc(NC(=O)C2=C(C)OCCS2)ccc1Cl,TSAO-resistant (RT E138K),RT-E138K,200

2 of the rows above, restated:

{"SMILES": "CCOCn1c(Sc2ccccc2)c(C(C)C)c(=O)[nH]c1=O", "strain": "IIIB", "changes": "Nevirapine resistant (RT Y181C)", "value": "80"}
{"SMILES": "CC(C)(C)OC(=O)c1cc(NC(=S)OC(C)(C)C)ccc1Cl", "changes": "RT-E138K", "value": "1"}